Measured values taken from paper PMC8605023 (Nature Communications, 2021).

Test system: G3BP1-YFP
Assay: AP-MS of G3BP1-YFP with N wt or N 3A peptide competition
Parameters: species or system Human
Conditions: for T-test Difference (Mutant vs WT inhibitor, log2): Peptide inhibitor competition, host protein co-purified, 4 replicates each; for Student's T-test Difference mut_wt: same quantity as T-test Difference column, unrounded

## POM121
  T-test Difference (Mutant vs WT inhibitor, log2): 10.02 log2
  Student's T-test Difference mut_wt: 10.0246

## NUP188
  T-test Difference (Mutant vs WT inhibitor, log2): 9.72 log2
  Student's T-test Difference mut_wt: 9.723
